Legend:
H9N2 = assay type: cell-based, Influenza A virus A/Chicken/Guangdong/96 (H9N2); conditions: ratio CC50 / IC50
PR8 (H1N1) = assay type: cell-based, Influenza A virus A/Puerto Rico/8/34 (PR8); conditions: ratio CC50 / IC50

| Structure (SMILES) | SI (H9N2) (H9N2) | SI (PR8 (H1N1)) (PR8 (H1N1)) |
| --- | --- | --- |
| C[C@H](CCC(=O)O)[C@H]1CC[C@H]2[C@@H]3[C@@H](O)C[C@@H]4C[C@H](O)CC[C@]4(C)[C@H]3CC[C@]12C [UDCA, ursodeoxycholic acid] | 13.9 | 10.6 |
| C[C@H](CCC(=O)O)[C@H]1CC[C@H]2[C@@H]3C[C@H](O)[C@@H]4C[C@H](O)CC[C@]4(C)[C@H]3CC[C@]12C [HDCA, hyodeoxycholic acid] | 9.2 | 9.5 |
| C[C@H](CCC(=O)O)[C@H]1CC[C@H]2[C@@H]3[C@H](O)C[C@@H]4C[C@H](O)CC[C@]4(C)[C@H]3CC[C@]12C [CDCA, Chenodeoxycholic acid] | 32.4 | 16.8 |

Reference: paper PMC6321071, “Chenodeoxycholic Acid from Bile Inhibits Influenza A Virus Replication via Blocking Nuclear Export of Viral Ribonucleoprotein Complexes” (Molecules, 2018)
